Results of unrelated studies side by side (data: NIAID ChemDB).

Common to all: target-level tests; species: HIV-1; protein: Reverse transcriptase; read by: nucleotide incorporation / radiometric; endpoint: IC50

Lines come from different laboratories, so protocols vary. ICn: concentration for n% inhibition.

CCC1(c2ccc(CNc3ccccc3)cc2)Oc2ccccc2-n2cccc2C1=O ; changes: RT-Y188L ; value: >10 µM
CCN1c2ncc(CCOc3ccncc3)cc2C(=O)N(C)c2ccc(Cl)nc21 ; changes: RT-Y181C ; value: <1 µM
Cc1cn([C@H]2CC[C@@H](COP(=O)(O)OP(=O)(O)OP(=O)(O)O)O2)c(=O)[nH]c1=O ; changes: RT-T139V ; value: 0.1 µM
Cc1cc(C)c(-n2nnnc2SCC(=O)Nc2ccc(C#N)cc2Cl)c(C)c1 ; value: <2 µM
CCC1(c2ccc(COc3cccnc3)cc2)Oc2ccccc2-n2cccc2C1=O ; changes: RT-Y188L ; value: 39 µM
CCN1c2ncc(CS(=O)(=O)c3ccccc3)cc2C(=O)N(C)c2ccc(Cl)nc21 ; strain: WT ; value: <1 µM
CCC1(c2cccc(Cl)c2)Cc2ccccc2-n2cccc2C1=O ; changes: RT-V106A ; value: 10 µM
CCN1c2ncc(CCc3ccccc3)cc2C(=O)Nc2c(C)cc(Cl)nc21 ; changes: RT-Y181C ; value: <1 µM
Cc1cc(C)c(-n2nnnc2SCC(=O)Nc2ccc(F)cc2C)c(C)c1 ; value: <2 µM
CCN1c2ncc(COc3cccnc3)cc2C(=O)N(C)c2ccc(Cl)nc21 ; strain: WT ; value: <1 µM
C=C(C)CCOCc1ccc(C2(CC)Oc3ccccc3-n3cccc3C2=O)cc1 ; changes: RT-Y181I ; value: >10 µM
CC(=O)c1sccc1NC(=O)CSc1nnnn1-c1c(C)cc(C)cc1C ; value: <2 µM
CCC1(c2ccc(CCc3ccccc3)cc2)Oc2ccccc2-n2cccc2C1=O ; changes: RT-Y188L ; value: >10 µM
CCN1c2ncc(COc3ccc4[nH]ccc4c3)cc2C(=O)N(C)c2ccc(Cl)nc21 ; changes: RT-Y181C ; value: <1 µM
Cc1cc(C)c(-n2nnnc2SCC(=O)Nc2ccccc2OC(F)F)c(C)c1 ; value: <2 µM
CCN1c2ncc(/C=C\c3ccccc3)cc2C(=O)N(C)c2cccnc21 ; changes: RT-Y181C ; value: <1 µM
CCC1(c2cccc(N)c2)Oc2ccccc2-n2cccc2C1=O ; changes: RT-V106A ; value: 1.6 µM
Cc1ccc(-n2nnnc2SCC(=O)Nc2ccccc2[N+](=O)[O-])cc1 ; value: <2 µM